Pooled drug test results. Numbers come from NIAID ChemDB, via PubChem.

Shared fields: whole-cell or culture tests; agent: Mycobacterium avium

Blank or dashed fields: not listed here.

| SMILES | read by | measure | strain | setting | result |
|---|---|---|---|---|---|
| CO[C@H]1/C=C/O[C@@]2(C)Oc3c(C)c(O)c4c(O)c(c(/C=N/N5CCN(C6CCCC6)CC5)c(O)c4c3C2=O)NC(=O)/C(C)=C\C=C\[C@H](C)[C@H](O)[C@@H](C)[C@@H](O)[C@@H](C)[C@H](OC(C)=O)[C@@H]1C | - | Mean MIC | ATCC 25291 | - | >1 µg/mL |
| Cc1c(CN2CCSCC2)cc(-c2ccc(F)cc2)n1-c1ccccc1 | - | MIC | 103317 | - | 16 µg/mL |
| CO[C@H]1/C=C/O[C@@]2(C)Oc3c(C)c(O)c4c(O)c(c(/C=N/N5CCN(C)CC5)c(O)c4c3C2=O)NC(=O)/C(C)=C\C=C\[C@H](C)[C@H](O)[C@@H](C)[C@@H](O)[C@@H](C)[C@H](OC(C)=O)[C@@H]1C | - | MIC | Isolate 91-0129 | - | 30 µg/mL |
| CC(C)N=c1cc2n(-c3ccc(Cl)cc3)c3ccccc3nc-2cc1Nc1ccc(Cl)cc1 | - | Median MIC | 30 strains | - | 0.25 µg/mL |
| O=C(O)c1cn(C2CC2)c2c(F)c(N3CCN4CCC3C4)c(F)cc2c1=O | - | MIC | LR114F | - | 1 µg/mL |
| O=C(O)c1cn(C2CC2)c2c(F)c(N3CCN4CCC3C4)c(F)cc2c1=O | - | MIC | PI2/8 | - | 0.03 µg/mL |
| CN[C@@H]1[C@@H](O)[C@@H](O[C@@H]2[C@@H](O)[C@H](O[C@H]3O[C@H](CN)CC[C@H]3N)[C@@H](N)C[C@H]2N)OC[C@]1(C)O | - | Mean MIC | ATCC 25291 | - | 6.25 µg/mL |
| NC1CCN(c2c(F)cc3c(=O)c(C(=O)O)cn(C4CC4)c3c2F)C1 | - | MIC90 | 14 strains | - | 16 µg/mL |
| Nc1ccccc1C(=O)Nc1ccc(Br)cc1 | - | MIC | MY330/88 | - | >125 µM |
| O=C(Nc1ccc(C(F)(F)F)cc1)c1cc(Cl)ccc1OP(=O)(c1ccccc1)c1ccccc1 | - | MIC | MY330/88 | 7 d | 8 µM |
| O=c1oc2ccccc2c(=O)n1-c1cccc([N+](=O)[O-])c1 | - | MIC | MY330/88 | - | 31 µM |
| N[C@@H]1CONC1=O | - | MIC | 1435-C clarithromycin-resistant | - | 16 µg/mL |
| CC[C@H]1OC(=O)[C@H](C)[C@@H](O[C@H]2C[C@@](C)(OC)[C@@H](O)[C@H](C)O2)[C@H](C)[C@@H](O[C@@H]2O[C@H](C)C[C@H](N(C)C)[C@H]2O)[C@](C)(OC)C[C@@H](C)C(=O)[C@H](C)[C@@H](O)[C@]1(C)O | - | MIC | SMT | - | 2 µg/mL |
| Cc1[nH]c(C)c(CN2CCN(C)CC2)c1CN1CCN(C)CC1 | - | MIC | 103317 | - | >64 µg/mL |
| O=C(Nc1ccc(C(F)(F)F)cc1)c1cc(Br)ccc1OP(=O)(c1ccccc1)c1ccccc1 | - | MIC | MY330/88 | 7 d | 8 µM |
| CC(C)N=c1cc2n(-c3ccc(Cl)cc3)c3ccccc3nc-2cc1Nc1ccc(Cl)cc1 | - | Mean MIC | ATCC 25291 | - | 0.38 µg/mL |
| CCCCCCn1c(C)c(CN2CCN(C)CC2)c(CN2CCN(C)CC2)c1-c1ccc(Cl)cc1 | - | MIC | 103317 | - | >64 µg/mL |
| O=C(Nc1ccc(Cl)cc1)c1cc(Cl)ccc1OP(=O)(Oc1ccccc1)c1ccccc1 | - | MIC | MY330/88 | 14 d | 16 µM |
| CC[C@H]1OC(=O)[C@H](C)[C@@H](O[C@H]2C[C@@](C)(OC)[C@@H](O)[C@H](C)O2)[C@H](C)[C@@H](O[C@@H]2O[C@H](C)C[C@H](N(C)C)[C@H]2O)[C@](C)(OC)C[C@@H](C)C(=O)[C@H](C)[C@@H](O)[C@]1(C)O | - | MIC | 3090-C clarithromycin-resistant | - | 512 µg/mL |
| CCn1cc(C(=O)O)c(=O)c2cc(F)c(N3CCS(=O)CC3)c(F)c21 | - | MIC | PI2/6 | - | 8 µg/mL |
| O=C(Nc1ccc(Cl)c(Cl)c1)c1ccccc1O | - | MIC | MY330/88 | - | 31 µM |
| CCOc1c(N2CCC(C(C)(C)N)C2)c(F)cc2c(=O)c(C(=O)O)cn(C3CC3)c12 | - | MIC | PI4/44 | - | 0.5 µg/mL |
| O=C(Nc1ccc(Cl)cc1)c1cc(Cl)ccc1OP(=O)(c1ccccc1)c1ccccc1 | - | MIC | MY330/88 | 14 d | 16 µM |
| CO[C@H]1/C=C/O[C@@]2(C)Oc3c(C)c(O)c4c(O)c(c5c(c4c3C2=O)NC2(CCN(CC(C)C)CC2)N=5)=NC(=O)/C(C)=C\C=C\[C@H](C)[C@H](O)[C@@H](C)[C@@H](O)[C@@H](C)[C@H](OC(C)=O)[C@@H]1C | - | MIC | 5-74 | - | <0.15 µg/mL |
| CC1CN(c2c(F)c(N)c3c(=O)c(C(=O)O)cn(C4CC4)c3c2F)CCN1C | - | MIC | RG0 | - | 0.5 µg/mL |
| CC(C)N=c1cc2n(-c3ccc(Cl)cc3)c3ccccc3nc-2cc1Nc1ccc(Cl)cc1 | - | MIC | 1435-C clarithromycin-resistant | - | 0.12 µg/mL |
| CO[C@H]1/C=C/O[C@@]2(C)Oc3c(C)c(O)c4c(O)c(c(/C=N/N5CCN(C)CC5)c(O)c4c3C2=O)NC(=O)/C(C)=C\C=C\[C@H](C)[C@H](O)[C@@H](C)[C@@H](O)[C@@H](C)[C@H](OC(C)=O)[C@@H]1C | - | Mean MIC | ATCC 25291 | - | >8.5 µg/mL |
| CC[C@H]1OC(=O)[C@H](C)[C@@H](O[C@H]2C[C@@](C)(OC)[C@@H](O)[C@H](C)O2)[C@H](C)[C@@H](O[C@@H]2O[C@H](C)C[C@H](N(C)C)[C@H]2O)[C@](C)(OC)C[C@@H](C)C(=O)[C@H](C)[C@@H](O)[C@]1(C)O | broth dilution / radiometric | MIC | 1102 | pH 7.4 | 0.5 µg/mL |
| CO[C@H]1/C=C/O[C@@]2(C)Oc3c(C)c(O)c4c(=O)c(c5oc6cc(N7CCN(CC(C)C)CC7)cc(=O)c6nc5c4c3=C2O)NC(=O)/C(C)=C\C=C\[C@H](C)[C@H](O)[C@@H](C)[C@@H](O)[C@@H](C)[C@H](OC(C)=O)[C@@H]1C | - | MIC | 3010 | - | 0.031 µg/mL |
| O=c1[nH]c2ccccc2c(=O)n1-c1ccc(Br)cc1 | - | MIC | MY330/88 | - | >250 µM |
| Cc1c(CN2CCSCC2)cc(-c2ccc(F)cc2)n1-c1ccc(Cl)cc1 | - | MIC | 103317 | - | >16 µg/mL |
| O=C(Nc1ccc(C(F)(F)F)cc1)c1cc(Cl)ccc1OP(=O)(OCc1ccccc1)OCc1ccccc1 | - | MIC | MY330/88 | 7 d | 32 µM |
| Cc1[nH]c(-c2ccc(Cl)cc2)cc1CN1CCN(C)CC1 | - | MIC | 103317 | - | >64 µg/mL |
| CO[C@H]1/C=C/O[C@@]2(C)Oc3c(C)c(O)c4c(O)c(c(N5CCN(Cc6c(C)cc(C)cc6C)CC5)c(O)c4c3C2=O)NC(=O)/C(C)=C\C=C\[C@H](C)[C@H](O)[C@@H](C)[C@@H](O)[C@@H](C)[C@H](OC(C)=O)[C@@H]1C | - | MIC50 | 50 strains | - | 0.05 µg/mL |
| Cc1[nH]c(C)c(CN2CCOCC2)c1CN1CCOCC1 | - | MIC | 103317 | - | >64 µg/mL |
| CN[C@@H]1[C@H](O[C@H]2[C@H](O[C@H]3[C@H](O)[C@@H](O)[C@H](N=C(N)N)[C@@H](O)[C@@H]3N=C(N)N)O[C@@H](C)[C@]2(O)C=O)O[C@@H](CO)[C@H](O)[C@H]1O | - | MIC | 453 | - | >8 µg/mL |
| O=C1c2cc(Cl)ccc2OP(=O)(c2ccccc2)N1c1ccc(Cl)cc1 | - | MIC | MY330/88 | 14 d | 16 µM |
| Cc1c(CN2CCOCC2)c(CN2CCOCC2)c(-c2ccc(Cl)cc2)n1C1CCCCC1 | - | MIC | 103317 | - | 8 µg/mL |

The last 4 rows once more:

SMILES	read by	measure	strain	setting	result
Cc1[nH]c(C)c(CN2CCOCC2)c1CN1CCOCC1	-	MIC	103317	-	>64 µg/mL
CN[C@@H]1[C@H](O[C@H]2[C@H](O[C@H]3[C@H](O)[C@@H](O)[C@H](N=C(N)N)[C@@H](O)[C@@H]3N=C(N)N)O[C@@H](C)[C@]2(O)C=O)O[C@@H](CO)[C@H](O)[C@H]1O	-	MIC	453	-	>8 µg/mL
O=C1c2cc(Cl)ccc2OP(=O)(c2ccccc2)N1c1ccc(Cl)cc1	-	MIC	MY330/88	14 d	16 µM
Cc1c(CN2CCOCC2)c(CN2CCOCC2)c(-c2ccc(Cl)cc2)n1C1CCCCC1	-	MIC	103317	-	8 µg/mL

A number after MIC or MFC names an inhibition level or a share of isolates. Rows are shuffled and stem from different studies.